Results of unrelated studies side by side (data: NIAID ChemDB).

Shared fields: whole-cell or culture tests; agent: Candida albicans

Percent inhibition refers to the dose given; in toxicity tests it is the harm to the cells.

| compound | changes | measure | method | strain or isolate | dose | result |
|---|---|---|---|---|---|---|
| CC(C)(O)c1cn(-c2ccc3ccccc3c2)nn1 |  | inhibition | broth dilution | URM 4125 | 2048 µg/mL | 0% |
| O=C1CC(c2ccccc2)CC2=C1C(c1cccc(C3C4=C(CC(c5ccccc5)CC4=O)OC4=C3C(=O)CC(c3ccccc3)C4)c1)C1=C(CC(c3ccccc3)CC1=O)O2 |  | zone | agar diffusion | ATCC 10231 | 140 µg/disc | 8 mm |
| CC(C)N=C(N)c1ccc2nc(-c3ccc4c(c3)Cc3cc(-c5nc6ccc(C(N)=NC(C)C)cc6[nH]5)ccc3-4)[nH]c2c1 |  | MFC |  | Isolate 3022 fluconazole-resistant |  | 1.56 µg/mL |
| O=[n+]1c(Sc2ccccc2)c(CBr)n([O-])c2ccccc21 |  | MIC |  | Clinical isolate 16 |  | 31.25 µg/mL |
| CCCCCCCCN1CCN(c2ccc(C(=O)N[C@H]3CCCNC(=O)C4C[C@H](N)CN4C(=O)C(C(C)O)NC(=O)C(CCc4ccc(O)cc4)NC(=O)C4C[C@@H](O)CN4C(=O)C(C(C)O)NC3=O)cc2)CC1 |  | MIC |  | ATCC 62376 |  | 1.56 µg/mL |
| Cc1c(O)cccc1C(=O)N[C@@H](CSc1ccccc1)[C@H](O)CN1C[C@H]2CCCC[C@H]2C[C@H]1C(=O)NC(C)(C)C |  | MIC |  | I159A |  | >64 µg/mL |
| Cc1cc(C=Nc2ccc(N=Cc3cc(C)cc(/C=N/Nc4nc5ccccc5s4)c3O)cc2)c(O)c(/C=C/Nc2nc3ccccc3s2)c1 |  | inhibition | turbidity |  | 100 µg/mL | 29.73% |
| CCCCCOc1ccc(-c2ccc(-c3ccc(C(=O)N[C@H]4CCCNC(=O)[C@@H]5C[C@H](NC)CN5C(=O)[C@H]([C@@H](C)O)NC(=O)[C@H](CCc5ccc(O)cc5)NC(=O)[C@@H]5C[C@@H](O)CN5C(=O)[C@H]([C@@H](C)O)NC4=O)cc3)cc2)cc1 |  | MIC |  | ATCC 62376 |  | 0.2 µg/mL |
| CCOc1cc2c(cc1F)n([O-])c(C)c(Cl)[n+]2=O |  | MIC |  | Clinical isolate 23 |  | 15.6 µg/mL |
| CCC(c1ccc(Cl)cc1)C(c1ccc(OC)cc1)n1cncn1 |  | inhibition |  | 28 strains | 256 µg/mL | 86% |
| CCCCCOc1ccc(-c2ccc(-c3ccc(C(=O)N[C@H]4CCCNC(=O)[C@@H]5C[C@H](NC(=O)c6ccccc6)CN5C(=O)[C@H]([C@@H](C)O)NC(=O)[C@H](CCc5ccc(O)cc5)NC(=O)[C@@H]5C[C@@H](O)CN5C(=O)[C@H]([C@@H](C)O)NC4=O)cc3)cc2)cc1 |  | MIC |  | ATCC 10231 |  | 6.25 µg/mL |
| C/C=C/C1=CC2=CC(=O)[C@](C)(OC(=O)c3c(C)cc(O)c(O)c3OC)C(=O)C2=CO1 |  | zone | agar diffusion | ATCC 64548 | 20 µg/disc | 0 mm |
| Cc1c(Sc2ccccc2)[n+](=O)c2cc(Cl)ccc2n1[O-] |  | MIC |  | Clinical isolate 9 |  | 31.25 µg/mL |
| C[C@H]1[C@H](O)[C@@H](C)/C=C/C=C/C=C/C=C/C=C/C=C/C=C/[C@H](O[C@@H]2O[C@H](C)[C@@H](O)[C@H](N)[C@@H]2O)C[C@@H]2O[C@](O)(C[C@@H](O)C[C@@H](O)CC[C@H](O)[C@@H](O)C[C@@H](O)CC(=O)O[C@H]1C)C[C@H](O)[C@H]2C(=O)O | efg1 (EFG1) | inhibition | broth dilution | ATCC 90028 | 1 µg/mL | 100% |
| CC(C)(O)c1cn(-c2cccc3ccccc23)nn1 |  | inhibition | broth dilution | URM 4987 | 2048 µg/mL | 0% |
| C=CCc1ccc(OC)c(OC)c1 |  | MIC90 | turbidity | 2883 |  | 345 µg/mL |
| O=C1CC(c2ccccc2)CC2=C1C(c1ccc(C3C4=C(CC(c5ccccc5)CC4=O)OC4=C3C(=O)CC(c3ccccc3)C4)cc1)C1=C(CC(c3ccccc3)CC1=O)O2 |  | zone | agar diffusion | ATCC 10231 | 140 µg/disc | 8 mm |
| CC(O)C1NC(=O)C(CCc2ccc(O)cc2)NC(=O)C2C[C@@H](O)CN2C(=O)C(C(C)O)NC(=O)[C@@H](N)CCCNC(=O)C2C[C@H](N)CN2C1=O |  | MIC |  | ATCC 62376 |  | >100 µg/mL |
| CC(C)(O)c1cn(-c2ccc([N+](=O)[O-])cc2)nn1 |  | inhibition | broth dilution | URM 4385 | 2048 µg/mL | 0% |
| NCCCC[C@H](NC(=O)[C@H](Cc1c[nH]c2ccccc12)NC(=O)[C@H](CCCCN)NC(=O)[C@@H](N)CCCCN)C(=O)O |  | inhibition |  | ATCC 10231 | 12.5 µM | 0% |
| Cc1c(Sc2ccccc2)[n+](=O)c2cc(C(F)(F)F)ccc2n1[O-] |  | MIC |  | Clinical isolate 10 |  | 31.25 µg/mL |
| CCCCCOc1ccc(-c2ccc(-c3ccc(C(=O)N[C@H]4CCCNC(=O)C5C[C@H](NC(=O)NC)CN5C(=O)C(C(C)O)NC(=O)C(CCc5ccc(O)cc5)NC(=O)C5C[C@@H](O)CN5C(=O)C(C(C)O)NC4=O)cc3)cc2)cc1 |  | MIC |  | ATCC 62376 |  | 0.2 µg/mL |
| Cc1ccc(-n2cc(C(C)(C)O)nn2)cc1C |  | inhibition | broth dilution | URM 4819 | 2048 µg/mL | 0% |
| COc1ccc(C(Cc2ccc(Cl)cc2Cl)C(c2ccc(OC)cc2)n2ccnc2)cc1 |  | inhibition |  | 28 strains | 256 µg/mL | 100% |
| CC1(C)O[C@H]2[C@H](O)[C@@H](N=[N+]=[N-])C=C(c3ccc(C=O)cc3)[C@H]2O1 |  | inhibition | broth dilution / turbidity | ATCC 10231 | 15.6 µg/mL | 60.12% |

For reference, 2 entries again:

compound,changes,measure,method,strain or isolate,dose,result
CC(C)(O)c1cn(-c2cccc3ccccc23)nn1,,inhibition,broth dilution,URM 4987,2048 µg/mL,0%
Cc1c(Sc2ccccc2)[n+](=O)c2cc(Cl)ccc2n1[O-],,MIC,,Clinical isolate 9,,31.25 µg/mL

Rows are shuffled and stem from different studies. MIC50, MIC90 and the like: level of inhibition, or share of isolates inhibited. Zone: diameter of growth inhibition. Blank or dashed fields: not listed here.